Publication PMC8876323, “Heat Shock Transcription Factor CgHSF1 Is Required for Melanin Biosynthesis, Appressorium Formation, and Pathogenicity in Colletotrichum gloeosporioides”
Construct, isoform or probe ends are uncertain for at least one entry. At least one verdict was read from the data and is not stated in words by the source. Protein sequences can lack the tags named with them.

Tested on: T1, CgHSF1 (Colletotrichum gloeosporioides)
T1 sequence: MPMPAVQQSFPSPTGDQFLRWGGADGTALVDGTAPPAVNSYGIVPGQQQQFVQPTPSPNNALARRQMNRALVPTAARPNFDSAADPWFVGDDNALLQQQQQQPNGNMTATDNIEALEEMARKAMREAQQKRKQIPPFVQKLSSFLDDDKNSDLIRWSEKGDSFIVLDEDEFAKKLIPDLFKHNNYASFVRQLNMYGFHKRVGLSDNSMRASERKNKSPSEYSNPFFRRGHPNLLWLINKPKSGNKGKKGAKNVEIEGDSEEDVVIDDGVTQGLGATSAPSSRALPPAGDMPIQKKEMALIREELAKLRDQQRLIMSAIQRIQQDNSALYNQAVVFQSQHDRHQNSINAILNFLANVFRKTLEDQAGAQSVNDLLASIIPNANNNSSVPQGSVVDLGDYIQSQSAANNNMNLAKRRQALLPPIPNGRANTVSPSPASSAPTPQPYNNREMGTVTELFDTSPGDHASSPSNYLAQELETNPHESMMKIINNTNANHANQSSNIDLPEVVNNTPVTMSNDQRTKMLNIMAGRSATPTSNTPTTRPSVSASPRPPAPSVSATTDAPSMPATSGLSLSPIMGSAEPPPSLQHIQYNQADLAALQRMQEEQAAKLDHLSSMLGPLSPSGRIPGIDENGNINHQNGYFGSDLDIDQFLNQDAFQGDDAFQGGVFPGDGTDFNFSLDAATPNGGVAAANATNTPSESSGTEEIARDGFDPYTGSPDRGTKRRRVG
Assay: EMSA
Details: recombinant protein

GACGACAAATGCAAGAAGTTCGGACCGTTGCCTG (double strand) [SCD-probe1]
binding result: binds

TTGTCAGCTCGTCTGGAATTCGGCCGGCCGTGGA (double strand) [SCD-probe2]
binding result: binds
